# PubChem BioAssay AID504761 – Drosophila RNAi Screening Center | 2011
# Test: 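Genome-wide fly cell screen for genes dengue virus requires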 (primary screen)
# Cells: D.Mel-2 cells from Drosophila
# Reagents: long dsRNA against Drosophila genes
# Conditions: infection with dengue virus type 2; dose and infection time not stated
# Measurement: 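Cells stained for dengue envelope protein and imaged; percent of infected cells per well on duplicate plates, ranked by infection, with stained nuclei counted for cell number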
# Scale: infection score: higher = more virus-infected cells; cell count: higher = more cells in the well
# Hit rule: 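Very low infection ranking in both replicate wells (chance probability at most 0.065), then a retest showing infection dropped 1.5-fold or more at p below 0.05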
# Calls: active = confirmed: knock-down lowers infection; inactive = not picked or not confirmed
# The deposit covers about 22,000 reagents; this is an unselected part of those that have a named target and a result. Over the whole deposit, 116 (0.52%) are marked active. 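Calls depend on retest data that are not deposited; infection was ranked per plate without normalising between plates; the unit of the infection score is not given.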 The raw values are shown without normalisation. Names joined by + are all predicted targets of the reagent. No sequences are given here. The record does not give: the amount of reagent, the time to read-out.
gene knocked down,DRSC id,"infection score, replicate 1","infection score, replicate 2","cell count, replicate 1","cell count, replicate 2",Call
CG32269 + CG32270,DRSC08195,3.31,0.64,5926,6081,inactive
sob,DRSC00838,2.62,2.31,5995,6068,inactive
sob,DRSC25075,2.41,0.7,6359,6563,inactive
wap (wings apart),DRSC20626,16,9.23,6756,6304,inactive
mthl15 (methuselah-like 15),DRSC01120,1.74,0.68,6385,6009,inactive
boi,DRSC18425,4.25,1.29,6207,6990,inactive
boi,DRSC18598,3.45,1.84,6815,6463,inactive
boi,DRSC25851,6.69,5.32,5774,6151,inactive
CG2186,DRSC19838,10.3,4.01,6371,6364,inactive
CG2186,DRSC25389,4.76,8.15,5654,5643,inactive
Rh7 (Rhodopsin 7),DRSC10529,2.48,2.89,5635,6641,inactive
Rh7 (Rhodopsin 7),DRSC28331,14,6.08,5295,5380,inactive
CG6984,DRSC07013,5.49,2.11,6716,6958,inactive
CG7523,DRSC16254,13.7,18.9,6064,5285,inactive
CG12231,DRSC19445,1.42,0.03,5709,6432,inactive
Smg5 (Smg5 nonsense mediated mRNA decay factor),DRSC03124,27.8,15.2,4205,4630,inactive
Smg5 (Smg5 nonsense mediated mRNA decay factor),DRSC27834,12.6,13.7,3325,4080,inactive

Records above whose target name starts with B or b:
gene knocked down,DRSC id,"infection score, replicate 1","infection score, replicate 2","cell count, replicate 1","cell count, replicate 2",Call
boi,DRSC18425,4.25,1.29,6207,6990,inactive
boi,DRSC18598,3.45,1.84,6815,6463,inactive
boi,DRSC25851,6.69,5.32,5774,6151,inactive

Continued:
gene knocked down,DRSC id,"infection score, replicate 1","infection score, replicate 2","cell count, replicate 1","cell count, replicate 2",Call
CG13800 (retired record),DRSC08334,2.34,2.59,6358,6709,inactive
CG13800 (retired record),DRSC28906,20,11.4,4699,4497,inactive
Cdc5 (Cell division cycle 5),DRSC08577,24,19.3,3311,3607,inactive
TTLL12 (Tubulin tyrosine ligase-like 12),DRSC06555,6.85,19.8,3826,2172,inactive
Galphas (G protein alpha subunit s),DRSC04616,14.7,32.7,6235,5602,inactive
CG14332,DRSC14811,,18.5,308,5596,inactive
Srp68 (Signal recognition particle 68),DRSC10475,6.12,1.9,2288,632,inactive
Srp68 (Signal recognition particle 68),DRSC28655,3.06,,881,294,inactive
dec (defective chorion),DRSC18759,5.72,4.89,5681,5769,inactive
dec (defective chorion),DRSC21477,3.66,3.77,6614,6682,inactive
dec (defective chorion),DRSC27935,22.6,30.3,5391,5108,inactive
CG18766,DRSC15936,4.65,3.48,6255,6781,inactive
CG18766,DRSC25739,11.3,14.7,6769,5721,inactive
CG13305,DRSC24957,4.58,1.18,6704,6498,inactive
Gmppa (GDP-mannose pyrophosphorylase A),DRSC07108,7.93,9.57,6409,6580,inactive
Gmppa (GDP-mannose pyrophosphorylase A),DRSC25683,17.9,24.8,5963,5567,inactive
dpr15 (defective proboscis extension response 15),DRSC12891,3.13,3.71,5981,5600,inactive
dpr15 (defective proboscis extension response 15),DRSC14187,12.7,3.17,6032,6872,inactive
dpr15 (defective proboscis extension response 15),DRSC14188,5.42,5.79,5684,6527,inactive
DIP-zeta (Dpr-interacting protein zeta),DRSC02203,1.35,2.18,6131,6753,inactive
DIP-zeta (Dpr-interacting protein zeta),DRSC02204,1.1,2.04,6929,7596,inactive
DIP-zeta (Dpr-interacting protein zeta),DRSC02205,1.3,1.75,6242,6530,inactive
